## DMS reactivity of the HIV-1 5' RNA in monomer and dimer

Values reported by Ye et al. 2022 (doi:10.1038/s41594-022-00746-2).

The 5' region of HIV-1 NL4-3 RNA (positions 1-437):
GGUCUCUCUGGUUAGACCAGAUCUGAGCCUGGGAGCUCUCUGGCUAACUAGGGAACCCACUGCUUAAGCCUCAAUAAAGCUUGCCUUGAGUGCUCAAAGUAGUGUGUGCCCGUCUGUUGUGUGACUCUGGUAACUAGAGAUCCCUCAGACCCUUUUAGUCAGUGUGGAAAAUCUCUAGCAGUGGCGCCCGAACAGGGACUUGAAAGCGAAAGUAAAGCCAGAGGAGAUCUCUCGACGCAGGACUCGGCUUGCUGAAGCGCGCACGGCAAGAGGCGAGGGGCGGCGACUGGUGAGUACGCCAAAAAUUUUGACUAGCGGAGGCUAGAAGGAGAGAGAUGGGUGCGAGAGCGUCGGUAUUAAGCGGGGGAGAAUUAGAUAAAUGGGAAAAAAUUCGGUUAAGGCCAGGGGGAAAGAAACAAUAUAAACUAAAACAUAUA

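Mutant RNA libraries with 1G, 2G or 3G starts, with or without cap, were folded at 37 °C for 30 min. Monomer and dimer bands were cut from native gels after folding in high salt (300 mM KCl, 5 mM MgCl2) or low salt (40 mM KCl, 0.1 mM MgCl2). Gel slices were treated with 170 mM dimethyl sulfate for 15 min at 37 °C and read by mutational profiling against an ethanol control.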

Scale: normalised reactivity, A and C only; low values point to paired or protected bases, higher values to unpaired ones. One numbering serves 1G, 2G and 3G. A position is written with its base.

position	domain	1G capped low-salt dimer	1G capped low-salt monomer	1G uncapped high-salt dimer	1G uncapped high-salt monomer
A334	AUG	0.45	0.50	0.44	0.53
A336	AUG	0.82	0.86	0.95	0.94
C343	AUG	0.29	0.30	0.31	0.35
A345	none	1.28	1.20	1.35	1.26
A347	none	0.29	0.26	0.29	0.28
C349	none	0.30	0.32	0.32	0.36
C352	none	0.46	0.46	0.42	0.42
A356	none	1.01	1.08	1.00	1.08
A359	none	0.52	0.37	0.58	0.40
A360	none	0.55	0.35	0.62	0.39
C362	none	0.34	0.27	0.33	0.28
A368	none	0.85	1.03	0.77	0.98
A370	none	0.51	0.53	0.50	0.50
A371	none	0.94	0.92	0.94	0.95
A374	none	0.51	0.46	0.51	0.45
A376	none	0.76	0.73	0.76	0.73
A378	none	0.21	0.23	0.22	0.23
A379	none	0.59	0.60	0.61	0.57
A380	none	0.84	0.84	0.82	0.83
A385	none	0.54	0.54	0.53	0.53
A386	none	1.34	1.33	1.29	1.36
A387	none	0.24	0.23	0.24	0.24
A388	none	0.09	0.08	0.10	0.08
A389	none	0.19	0.17	0.21	0.17
A390	none	0.89	0.91	0.88	0.92
C393	none	0.65	0.69	0.62	0.64
A398	none	0.27	0.21	0.28	0.24
A399	none	0.40	0.31	0.40	0.33
C402	none	0.05	0.04	0.05	0.06
C403	none	0.05	0.04	0.04	0.04
A404	none	0.26	0.17	0.24	0.23
A410	none	0.37	0.40	0.37	0.38
A411	none	0.81	0.83	0.78	0.78
A412	none	0.51	0.51	0.51	0.49
A414	none	0.50	0.48	0.51	0.46
A415	none	0.24	0.21	0.25	0.21
A416	none	0.42	0.42	0.45	0.42
C417	none	0.80	0.84	0.85	0.79
A418	none	0.62	0.63	0.63	0.58
A419	none	0.47	0.49	0.48	0.46
A421	none	0.36	0.38	0.37	0.37
A423	none	0.42	0.41	0.46	0.39
A424	none	0.36	0.34	0.39	0.33
A425	none	0.54	0.52	0.55	0.49
C426	none	0.78	0.77	0.79	0.73
A428	none	0.10	0.10	0.10	0.11
A429	none	0.70	0.72	0.73	0.69
A430	none	0.55	0.55	0.57	0.54
A431	none	0.61	0.61	0.64	0.59
C432	none	0.90	0.93	0.90	0.86
A433	none	0.73	0.75	0.72	0.71
A435	none	0.51	0.51	0.49	0.50
A437	none	0.05	0.04	0.04	0.04

The first 3 entries again:

{"position": "A334", "domain": "AUG", "1G capped low-salt dimer": 0.45, "1G capped low-salt monomer": 0.50, "1G uncapped high-salt dimer": 0.44, "1G uncapped high-salt monomer": 0.53}
{"position": "A336", "domain": "AUG", "1G capped low-salt dimer": 0.82, "1G capped low-salt monomer": 0.86, "1G uncapped high-salt dimer": 0.95, "1G uncapped high-salt monomer": 0.94}
{"position": "C343", "domain": "AUG", "1G capped low-salt dimer": 0.29, "1G capped low-salt monomer": 0.30, "1G uncapped high-salt dimer": 0.31, "1G uncapped high-salt monomer": 0.35}